Results of single-concentration screens

Mtb glucose medium: 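Phenotypic screen: M. tuberculosis growth, glucose 7H9 medium, 3 days; the read-out is not stated. Concentration: 50 µM. The record gives no direction; compounds that gave an IC50 in retests scored well above the rest, so higher reads as more growth inhibition. Of about 69,000 compounds tested this way, about 760 (1.1%) reached 50% or more in at least one test.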
Mtb cholesterol medium: 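Growth of Mycobacterium tuberculosis over 4 days (cholesterol / DPPC medium with tyloxapol); the read-out is not stated. Tested at 50 µM. Direction is inferred from retests: higher values go with more growth inhibition. Of about 69,000 compounds tested this way, about 370 (0.54%) reached 50% or more in at least one test.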

Each number is a percent effect as filed.
The controls that fix the scale are not given in the record; negative values are as filed.
The entries come from a sample that favours strong results.
Two or more numbers in one place are separate tests of the same structure; such repeats can differ widely.
A dash means the value is not listed here; it may have been measured.

| structure | Mtb glucose medium | Mtb cholesterol medium |
|---|---|---|
| `Cc1noc(C(C)Nc2ccc3c(c2)CCC3)n1` (stereo not shown) | - | 68.3% |
| `CCOCC(O)CN1CCN(C(=O)Cc2cccc(C)c2)CC1` (stereo not shown) | -15.27% | - |
| `COc1cccc(C(CO)NC(=O)NC(C)C)c1` (stereo not shown) | - | 2.96% & 16.7% |
| `CN(CC(=O)N1CCCC1)C(=O)c1ccccc1F` | -1.578% & 8.989% | - |
| `COCc1ncc(CN2CCC(Oc3ccccc3OC)CC2)cn1` | -32.68% | - |
| `O=C(CCN1CCCC1c1cccc2c1OCCO2)N1CCCCC1` (stereo not shown) | 41.17% | - |
| `OCc1ccc(CN(CCCn2ccnc2)Cc2cccnc2)o1` | 20.79% | - |
| `O=C(OCCNc1ncccn1)c1ccc(Br)s1` | 51.5% | - |
| `CC1(NC(=O)CC2CCc3ccccc32)CCOCC1` (stereo not shown) | - | 90.9% & 5.78% |
| `COc1ccc2nnc(C(=O)NCC3CCCC3)nc2c1` | 50.58% & 35.08% | 31.88% |
| `CC(C)[C@@H]1CN(Cc2cnc(C3CCCCC3)nc2)C[C@H]1N(C)C` | -25.69% | - |
| `Nc1nnnn1NCc1ccccc1C(F)(F)F` | 7.946% | - |
| `Cc1cc(C)c(C#N)c(N2CCC(Cc3ccccc3)CC2)n1` | 67.56% | 15.32% |
| `Cn1c(C2CC2)nc2c1CCN(CCOc1ccccc1C#N)C2` | -5.439% | - |
| `O=C(c1ccc(Br)o1)N1CCN(Cc2ccc(OC(F)(F)F)cc2)CC1` | 28.43% & 38.24% | 70.77% |
| `O=C(c1[nH]nc(C2CC2)c1Cl)N1CCN(C2CC2)C(=O)C1` | - | 16.7% |
| `Cc1cn2c(n1)C(CNCC1=Cc3cc(Cl)ccc3OC1)CCC2` (stereo not shown) | 51.44% | - |
| `COc1cn(-c2ccccc2)nc1C(=O)NCCCN1CCCC(C)C1` (stereo not shown) | 8.589% | 12.76% |
| `COCC(C)NS(=O)(=O)c1ccc(Br)cn1` (stereo not shown) | -9.793% | -5.426% |
| `Cc1nc(CN2CCCC(N(C)Cc3cscn3)C2)no1` (stereo not shown) | 58.23% | - |
| `OC1CCN(C2CCN(c3ccc(Cn4ccnc4)cn3)CC2)CC1` | -30.27% | 1.882% |
| `N#CCCN(Cc1cccnc1)C(=O)c1cc(Cl)c[nH]1` | 31.12% | - |
| `CCc1ccccc1CN1CCC(N2CCCC2=O)CC1` | 17.26% | - |
| `Br.CCOc1ccc(N(CC(=O)c2ccccc2)C2=NCCCCC2)cc1` | 84.34% & 80.15% | 76.47% |
| `Cc1cc(F)cc(NC(=O)N(C)CC(C)(CO)CO)c1` | 29.33% & 1.746% | 13.72% |
| `CCn1nnc(NCc2ccc(-c3ccc(Br)cc3)o2)n1` | 33.54% & 60.24% | 48.42% |
| `O=C(O)C(F)(F)F.[H][C@@]12CN(CC(C)C)C[C@]1([H])C(=O)N(CC)C21CCN(S(C)(=O)=O)CC1` | - | -7.585% & 71.79% |
| `CC(C)OCCOCc1cccc(NC(=O)NCc2ccncc2)c1` | -53.24% | - |
| `NC(=O)NC(=O)CCN1CCCC1c1cccc2c1OCCO2` (stereo not shown) | 13.19% | - |
| `CCCc1cc(C(=O)NC(C)c2ccccc2)n(C)n1` (stereo not shown) | -25.96% | 15.55% & 3.339% |
| `Cc1ccc(N2CCCC3(COCCN(c4cnccn4)C3)C2)nn1` (stereo not shown) | 53.26% | - |
| `COc1ccc(COCC(=O)N2CCCC(n3cncn3)C2)cc1` (stereo not shown) | 108.8% | - |
| `CC(C)CN1CC(C(=O)NCCNc2ncccn2)CC1=O` (stereo not shown) | - | -8.781% |
| `CN1CCC(CNC(=O)c2cccc(C(F)(F)F)c2)c2ccccc21` (stereo not shown) | 51.37% & 47.98% | - |
| `Cc1ccn(-c2ccccc2NCc2cscn2)n1` | 35.28% & 13.29% | - |
| `O=C(O)C(F)(F)F.[H][C@@]12CN(Cc3ccco3)C[C@]1([H])C(=O)N(c1ccsc1)C2` | 64.39% | 41.31% |
| `O=C(c1cn(-c2ccccc2)nn1)N1CCOCC(O)C1` (stereo not shown) | - | 51.2% |
| `COCCn1cncc1CN1CCCC(C)(c2ccccc2)C1` (stereo not shown) | 7.957% | -30.45% |
| `Cc1nc2c(c(N3CCN(c4ncccc4C(N)=O)CC3)n1)CCNC2` | 12.31% | - |
| `Cc1[nH]ncc1C(=O)NCC(CO)Cc1ccc(Cl)cc1` (stereo not shown) | -5.282% & 0.6228% | - |
| `Cn1ccnc1CN1CCN(c2ccc(C#N)cn2)CC1` | 16.81% | - |
| `Cc1cc(N2CCN(Cc3ccc(-c4cc[nH]n4)o3)CC2)cc(C)n1` | -7.26% | - |
| `CC(=O)c1c(C)nn(CC(=O)Nc2ccc(F)cc2)c1C` | -2.261% & -45.92% | - |
| `CCn1cc(CN(C)S(=O)(=O)c2ccccc2)cn1` | 26.86% | - |
| `CC(C)(NS(C)(=O)=O)C(=O)NCCc1csc2ccccc12` | 35.56% | - |
| `COc1ccc(C2=NOC(CC#N)C2)cc1` (stereo not shown) | 9.932% | - |
| `CCN(CC)C(=O)CN1CCC2(C=Cc3cc(Cl)c(C)cc3O2)CC1` | 19.67% | 24% & 40.13% |
| `Cc1nc(CN2CCC(NS(C)(=O)=O)CC2)co1` | 0.7448% & 60.76% | - |
| `Cc1nn(C)c(C)c1C1CCCN1Cc1cccc(C(N)=O)c1` (stereo not shown) | 10.53% | - |
| `O=S(=O)(NCC1CCOC1)N1CCc2ccccc2C1` (stereo not shown) | -11.13% | -20.8% |
| `CCN1CCC2(CC1)CC(NC(=O)c1csnn1)c1ccccc1O2.O=C(O)C(F)(F)F` (stereo not shown) | 50.66% | - |
| `CC(=O)N(c1ccc(C)cc1)c1nc(CN2CCCCC2C)cs1` (stereo not shown) | -14.68% | - |
| `O=C1CC2(CCSC2)C(=O)N1Cc1ncc(-c2cccc(F)c2)o1` (stereo not shown) | 31.87% | - |
| `CCn1cncc1Cn1ncc2ccccc2c1=O` | 27.38% & -2.759% | - |
| `Clc1cc(CN2CCCC(Cn3cncn3)C2)c2ncccc2c1` (stereo not shown) | 14.66% & 12.28% | - |
| `Cc1cc(C)c2nc(C)cc(C(=O)NCc3csc(N(C)C)n3)c2c1` | -68.55% | -36.31% |
| `CCOc1cccc2c1OCC(C(=O)NS(=O)(=O)c1ccc(Cl)cc1)=C2` | -18.91% | - |
| `OCc1cc2ccccc2nc1N1CCCCC1` | -13.24% | -33.12% |
| `COCCC(C)NC(=O)Nc1ccc(N2CCOC2=O)c(OC)c1` (stereo not shown) | 102.8% | - |
| `COCc1csc(NC(=O)NCc2ccc(C)s2)n1` | 9.293% & 9.405% | 0.8826% |
| `CC(=O)c1ccc(NC(=O)C(C)Cn2cc(Br)cn2)cc1` (stereo not shown) | -1.337% & 4.075% | - |
| `COC(=O)NCC(=O)N1CCc2cc(Cl)cc(Cl)c2C1` | 52.14% | - |
| `CNC(=O)c1cccc(CCNc2ccccn2)c1` | -4.418% & 4.866% | -7.744% |
| `COCCC(=O)N1CCCC(CCc2ccc(F)c(F)c2)C1` (stereo not shown) | 33.26% | 29.39% |
| `CC(C)Oc1cccc(C(=O)C2CCCN(C(=O)c3ccnn3C)C2)c1` (stereo not shown) | -10.13% | -0.5837% |
| `COc1ccc(S(=O)(=O)Nc2cnc(N(C)C)nc2)cc1` | 10.16% | 25.9% |
| `CCC1=NC(SCC(=O)c2ccc(Cl)cc2)c2cc(CC)sc2N1` (stereo not shown) | -5.276% | - |
| `Cc1ncsc1C(=O)NCC1SCCc2ccccc21` (stereo not shown) | -19.16% | - |
| `CCS(=O)(=O)N(C)CCCNC(=O)c1cc(Cl)cc2cccnc12` | 18.74% | - |
| `O=C(NCc1cc[nH]n1)NCC(O)c1ccc(F)cc1` (stereo not shown) | 9.189% | - |
| `CCN(C(=O)COC)C(c1ccc(Cl)cc1)c1ccccn1` (stereo not shown) | - | 11.22% |
| `Cc1cc(C)cc(NCCC(=O)NC2CCCCC2)c1` | 18.95% & 8.203% | - |
| `Cc1noc(CCCC(=O)NC(C)c2ccccn2)n1` (stereo not shown) | -8.147% | - |
| `COc1cccc(-c2cc(C(=O)NCCCn3nc(C)cc3C)[nH]n2)c1` | 52.33% | - |
| `CCCC(=O)N1CCC2(CC1)OCCO2` | -6.475% | - |
| `CCC1(CO)CCCN(C(=O)c2ccc(N3CCN(C)CC3)cc2)C1` (stereo not shown) | 19.2% | 23.87% |
| `O=C(c1ccc2c(c1)CCC2)N1CCN(c2ccc(Cl)cn2)CC1` | 10.88% | 4.905% |
| `COc1cc(C2CC(=O)Oc3cc(C)[nH]c(=O)c32)ccc1OC(F)F` (stereo not shown) | 2.222% | - |
| `CC(C)c1nc(C(=O)N(C)c2ccc(Br)cn2)cs1` | 29.06% & 9.143% | 22.09% |
| `COc1ccc(-c2cc(CN)ccc2F)c(OC)c1OC` | -33.33% & 11.48% | - |
| `COc1ccc(CC(C)Nc2cccc(F)c2)cc1` (stereo not shown) | 5.859% | 39.77% |
| `Cl.NC(=O)COc1ccc(CNCc2ccc(F)c(F)c2)cc1` | -1.154% & -2.85% | - |
| `Cc1ccc(CNC(CN2CCN(C)CC2)c2ccccc2)cc1` (stereo not shown) | 29.58% | - |

For reference, 11 entries once more:

- CC(C)[C@@H]1CN(Cc2cnc(C3CCCCC3)nc2)C[C@H]1N(C)C | Mtb glucose medium: -25.69%
- Cc1cc(F)cc(NC(=O)N(C)CC(C)(CO)CO)c1 | Mtb glucose medium: 29.33% & 1.746%; Mtb cholesterol medium: 13.72%
- CCS(=O)(=O)N(C)CCCNC(=O)c1cc(Cl)cc2cccnc12 | Mtb glucose medium: 18.74%
- Clc1cc(CN2CCCC(Cn3cncn3)C2)c2ncccc2c1 (stereo not shown) | Mtb glucose medium: 14.66% & 12.28%
- CCn1cncc1Cn1ncc2ccccc2c1=O | Mtb glucose medium: 27.38% & -2.759%
- CC(=O)N(c1ccc(C)cc1)c1nc(CN2CCCCC2C)cs1 (stereo not shown) | Mtb glucose medium: -14.68%
- COc1cccc(-c2cc(C(=O)NCCCn3nc(C)cc3C)[nH]n2)c1 | Mtb glucose medium: 52.33%
- CC(C)CN1CC(C(=O)NCCNc2ncccn2)CC1=O (stereo not shown) | Mtb cholesterol medium: -8.781%
- COCc1ncc(CN2CCC(Oc3ccccc3OC)CC2)cn1 | Mtb glucose medium: -32.68%
- O=C(NCc1cc[nH]n1)NCC(O)c1ccc(F)cc1 (stereo not shown) | Mtb glucose medium: 9.189%
- O=C(OCCNc1ncccn1)c1ccc(Br)s1 | Mtb glucose medium: 51.5%

Measurements from “University of Dundee, Small-Polar-MMV Screening Library” (2021), ChEMBL document CHEMBL3988442.